A mixed list of measured activities; the numbers were collected in NIAID ChemDB.

Common to all: whole-cell or culture tests; species: Cryptococcus neoformans; endpoint: MIC

Blank or dashed fields: not listed here. Two numbers with a dash give a range or band. Neighbouring rows are from separate reports.

structure	strain	method	result
CCCCC/C=C\C/C=C\CCCCCCCC(=O)N[C@H]1C[C@@H](O)[C@@H](O)NC(=O)[C@@H]2[C@@H](O)[C@@H](C)CN2C(=O)[C@H]([C@H](C)O)NC(=O)[C@H]([C@H](O)[C@@H](O)c2ccc(O)cc2)NC(=O)[C@@H]2C[C@@H](O)CN2C(=O)[C@H]([C@H](C)O)NC1=O	-	-	>20 µg/mL
CNC(NC)c1ccc2cc(-n3cc(CCCO)nn3)c(=O)oc2c1	ATCC 24067	broth dilution	>750 µg/mL
Oc1ccccc1N=Cc1ccc(O)c(O)c1O	LMM 820	broth dilution	11.3 µg/mL
Cc1ccc(C(Cc2ccc(Cl)cc2)n2ccnc2)s1	-	-	4.7 µM
Cc1ccc2c(c1)c1nnc(N3CCN(C)CC3)nc1n2C	10 strains	-	8–16 µg/mL
COc1ccc(O)c(C2Sc3ccccc3C2CO)c1	93/V	-	50 µg/mL
COc1ccccc1N1CCN(CCc2nnnn2[C@@H](C)[C@](O)(Cn2cncn2)c2ccc(F)cc2F)CC1	LA314	-	4 µg/mL
Clc1ccc(C(CCOc2ccccc2)Cn2ccnc2)c(Cl)c1	-	-	<1 µg/mL
CCC(C)CC(C)CCCCCCCCC(=O)N[C@H]1C[C@@H](O)[C@H](NCCN)NC(=O)[C@@H]2[C@@H](O)CCN2C(=O)[C@H]([C@H](O)CCN)NC(=O)[C@H]([C@H](O)[C@@H](O)c2ccc(O)cc2)NC(=O)[C@@H]2C[C@@H](O)CN2C(=O)[C@H]([C@@H](C)O)NC1=O	1041.007	-	>2 µg/mL
Clc1ccc(OCCCC(Cn2ccnc2)c2ccc(Cl)cc2Cl)cc1	-	-	10 µg/mL
COC(=O)/C(C)=C1\C(=O)[C@H](O)[C@]2(C)C3=C1[C@]14OC(=O)C5=C1C[C@H]1[C@](O)(COC(=O)/C(C)=C/COC(=O)CCC(=O)OC5)[C@H]5C[C@H]5[C@]1(C)[C@@H]4C[C@]3(O)[C@H]1C[C@H]12	ATCC 22402	broth dilution	16 µg/mL
C=CC[C@@H]1/C=C(/C)C[C@H](C)C[C@H](OC)[C@H]2O[C@@](O)(C(=O)C(=O)N3CCCC[C@H]3C(=O)O[C@H](/C(C)=C/[C@@H]3CC[C@@H](O)[C@H](OC)C3)[C@H](C)[C@@H](O)CC1=O)[C@H](C)C[C@@H]2OC	C21F3	-	25 µg/mL
Clc1ccc(C(Cc2ccccc2)Cn2ccnc2)c(Cl)c1	-	-	<1 µg/mL
CN[C@@H]1[C@H](O[C@@H]2OC[C@@H](O)[C@H](O)[C@H]2O)[C@@H](O)[C@H](O[C@H]2c3cc(C)c(C(=O)N[C@H](C)C(=O)O)c(O)c3-c3c(cc4c(c3O)C(=O)c3cc(OC)cc(O)c3C4=O)[C@@H]2O)O[C@@H]1C	IAM 4514	-	0.8 µg/mL
CCCCCOc1ccc(-c2cc(-c3ccc(C(=O)N[C@H]4C[C@@H](O)[C@@H](O)NC(=O)[C@@H]5[C@@H](O)[C@@H](C)CN5C(=O)[C@H]([C@H](O)CC(N)=O)NC(=O)[C@H]([C@H](O)[C@@H](O)c5ccc(O)c(OS(=O)(=O)O)c5)NC(=O)[C@@H]5C[C@@H](O)CN5C(=O)[C@H]([C@@H](C)O)NC4=O)cc3)no2)cc1	TIMM0354	-	>64 µg/mL
CCn1nc(-c2cc(C)on2)cc1C	-	-	>200 µM
N#CC(=C1SCCCS1)n1ccnc1	-	-	>100 µg/mL
C[C@@H](c1ncncc1F)[C@](O)(Cn1cncn1)c1ccc(F)cc1F	Clinical isolate (IM 000319)	broth dilution	<0.015 µg/mL
Clc1ccc(OCC(Cn2ccnc2)c2ccc(Cl)cc2Cl)cc1	-	-	<1 µg/mL
Clc1ccc(CC(Cn2ccnc2)c2ccccc2Br)cc1	-	-	<1 µg/mL
Clc1ccc(CC(c2cccs2)n2ccnc2)cc1	-	-	19 µM
CNC1C(C)OC(O[C@H]2c3cc(C)c(C(=O)N[C@H](C)C(=O)ON(C)C)c(O)c3-c3c(cc4c(c3O)C(=O)c3cc(OC)cc(O)c3C4=O)[C@@H]2O)C(O)C1OC1OCC(O)C(O)C1O	IAM 4514	-	1.6 µg/mL
Cc1cc(-c2c(N=O)c(C)nn2C)no1	-	-	0.8 µM
Oc1ccccc1N=Cc1ccc(F)cc1	VM-MCMMPI	broth dilution	8 µg/mL
CCCCCCCCNC1NCCC2c3ccc(OC)cc3CCN12	NFI3102	-	8 µg/mL
Oc1ccccc1N=Cc1cccc(O)c1O	F-10	broth dilution	4 µg/mL
CCC(C)n1ncn(-c2ccc(N3CCN(c4ccc(OC[C@H]5CO[C@](Cn6cncn6)(c6ccc(Cl)cc6Cl)O5)cc4)CC3)cc2)c1=O	Clinical isolate (IM 972751)	broth dilution	<0.015 µg/mL
OCC1c2ccccc2SC1c1ccccc1O	Farwania	-	12.5 µg/mL
O=C(/C(=C1/SCCN1c1ccccc1)n1ccnc1)c1ccc(Cl)cc1	-	-	>100 µg/mL
CCSc1ssc(=S)c1C	ATCC 32264	-	100 µg/mL
CNC1C(C)OC(O[C@H]2c3cc(C)c(C(=O)N[C@H](C)C(=O)N[C@H](C)C(=O)O)c(O)c3-c3c(cc4c(c3O)C(=O)c3cc(OC)cc(O)c3C4=O)[C@@H]2O)C(O)C1OC1OCC(O)C(O)C1O	IAM 4514	-	>100 µg/mL
CCCCCCCCNC1NCCC2c3ccccc3CCN12	NFI3102	-	4 µg/mL
S=c1cc(SCC2CCCC2)ss1	ATCC 32264	-	50 µg/mL
CN(C)c1ccc(-c2sc3ccccc3c2CO)cc1	93/V	-	25 µg/mL
Cc1ccc(C(Cc2ccc(Cl)cc2Cl)n2ccnc2)s1	-	-	4.7 µM
Cc1cc(-c2cc(C)on2)n(C)n1	-	-	>200 µM
OCC1c2ccccc2SC1c1cc(Br)ccc1O	Isolate 25	-	6 µg/mL
CCCCOc1ccccc1N1CCN(CCc2nnnn2C(C)C(O)(Cn2cncn2)c2ccc(F)cc2F)CC1	LA314	-	4 µg/mL
Cc1cc(-c2c(N=O)c(C)nn2-c2ccccc2)no1	-	-	66 µM
CN[C@@H]1[C@H](O[C@@H]2O[C@H](CO)[C@@H](O)[C@H](S(=O)(=O)O)[C@H]2O)[C@@H](O)[C@H](O[C@H]2c3cc(C)c(C(=O)N[C@H](C)C(=O)O)c(O)c3-c3c(cc4c(c3O)C(=O)c3cc(OC)cc(O)c3C4=O)[C@@H]2O)O[C@@H]1C	D49	-	1.6 µg/mL
CNC1C(C)OC(O[C@H]2c3cc(C)c(C(=O)N[C@H](C)C(=O)OC)c(O)c3-c3c(cc4c(c3O)C(=O)c3cc(OC)cc(O)c3C4=O)[C@@H]2O)C(O)C1OC1OCC(O)C(O)C1O	IAM 4514	-	12.5 µg/mL
C[C@@H](n1cnc2cc(Cl)ccc2c1=O)[C@](O)(Cn1cncn1)c1ccc(F)cc1F	Isolate 163.99	-	0.024 µg/mL
CN1CCC[C@H]1CCCCCCCCCc1ccccc1	IP960-67	-	25 µg/mL
CC(=O)OCC1=C(C(=O)O)N2C(=O)C(NC(=O)CC(=O)N(C)c3ccccc3)C2SC1	-	-	>250 µg/mL
OC(Cn1cncn1)(Cn1nnc(CCN2CCN(c3cccc(Cl)c3)CC2)n1)c1ccc(F)cc1F	LA314	-	>16 µg/mL
CCOC(=O)C(=C1SCCCS1)n1ccnc1	-	-	>100 µg/mL
COc1cc(/C=C2\COc3ccccc3C2=O)ccc1O	93/V	-	25 µg/mL
O=[N+]([O-])c1ccc(C=Nc2ccccc2O)cc1	C-3-1	broth dilution	8 µg/mL
Clc1ccc(C(COc2ccc(Cl)cc2Cl)Cn2ccnc2)cc1	-	-	<1 µg/mL
COc1cc(/C=C2\CSc3ccccc3C2=O)ccc1O	Farwania	-	50 µg/mL
COc1ccc(CC(Cn2ccnc2)c2ccc(Cl)cc2Cl)cc1	-	-	<1 µg/mL
C=C(CCCCCNC1NCCC2c3ccc(OC)cc3CCN12)C(C)C	NFI3102	-	16 µg/mL
S=c1cc(Sc2ccccc2)ss1	ATCC 32264	-	6.25 µg/mL
CNC1C(C)OC(O[C@H]2c3cc(C)c(C(=O)N[C@H](C)C(N)=O)c(O)c3-c3c(cc4c(c3O)C(=O)c3cc(OC)cc(O)c3C4=O)[C@@H]2O)C(O)C1OC1OCC(O)C(O)C1O	IAM 4514	-	1.6 µg/mL
CCSc1ssc(=S)c1-c1ccccc1	ATCC 32264	-	250 µg/mL
O=CCSC(=S)NCc1ccccc1	-	-	2 µg/mL
Cc1coc2c1C(=O)[C@@H]1[C@](C)([C@H](O)CC[C@@]1(C)O)[C@@H]2O	ATCC 22402	broth dilution	>256 µg/mL
Clc1ccc(C(Cc2c(Cl)cccc2Cl)Cn2ccnc2)cc1	-	-	<1 µg/mL
CC[C@@H]([C@H](C)O)n1ncn(-c2ccc(N3CCN(c4ccc(OC[C@@H]5CO[C@@](Cn6cncn6)(c6ccc(F)cc6F)C5)cc4)CC3)cc2)c1=O	DUMC 133.95	-	0.25 µg/mL
CCSc1ssc(=S)c1Cl	ATCC 32264	-	62.5 µg/mL
COc1ccc2c(c1)CCN1C(NCCCCCCC(C)C)NCCC21	NFI3102	-	2 µg/mL
C[C@H](n1nnnc1CCN1CCN(c2ccc(F)cc2)CC1)[C@](O)(Cn1cncn1)c1ccc(F)cc1F	LA314	-	2 µg/mL
CCCCNOC(=O)[C@@H](C)NC(=O)c1c(C)cc2c(c1O)-c1c(cc3c(c1O)C(=O)c1cc(OC)cc(O)c1C3=O)[C@H](O)[C@H]2OC1OC(C)C(NC)C(OC2OCC(O)C(O)C2O)C1O	IAM 4514	-	3.1 µg/mL
Oc1ccccc1C=Nc1ccccc1O	LMM 820	broth dilution	4 µg/mL
CC(=O)OCC1=C(C(=O)O)N2C(=O)C(NC(=O)CSC(=O)N(C)C)C2SC1	-	-	63 µg/mL
CC1=C2C(=O)c3c(C)coc3C[C@@]2(C)[C@H](O)C[C@H]1O	ATCC 22402	broth dilution	128 µg/mL
CC1=CS/C(=C(/C#N)n2ccnc2)S1	-	-	>100 µg/mL
Clc1ccc(C(CCCOc2ccccc2)Cn2ccnc2)c(Cl)c1	-	-	<1 µg/mL
O=C1/C(=C/c2ccc3c(c2)OCO3)CCc2ccccc21	93/V	-	50 µg/mL
Clc1ccc(C(COc2ccc(Br)cc2)Cn2ccnc2)c(Cl)c1	-	-	<1 µg/mL
CC[C@@]1(O)C[C@H](O[C@H]2C[C@H](N(C)C)[C@H](O[C@H]3C[C@H](O)[C@H](O[C@H]4CCC(=O)[C@H](C)O4)[C@H](C)O3)[C@H](C)O2)c2c(cc3c(c2O)C(=O)c2c(O)cccc2C3=O)[C@H]1C(=O)OC	Serotype C	-	0.8 µg/mL
Cn1cccc1C(Cc1ccc(Cl)cc1Cl)n1ccnc1	-	-	75 µM
Cc1cc(-c2cc(C)n(CCO)n2)no1	-	-	>200 µM
Clc1ccc(C(CCOc2ccccc2Br)Cn2ccnc2)c(Cl)c1	-	-	<1 µg/mL
COc1ccc(/C=C2\CS(=O)(=O)c3ccccc3C2=O)cc1	93/V	-	25 µg/mL
Cc1ccc(C(Cc2ccc([N+](=O)[O-])cc2)n2ccnc2)s1	-	-	9.4 µM
CCCCCCSc1cc(=S)ss1	ATCC 32264	-	62.5 µg/mL

A second listing of 9 rows from above:

structure,strain,method,result
CCn1nc(-c2cc(C)on2)cc1C,-,-,>200 µM
COc1ccccc1N1CCN(CCc2nnnn2[C@@H](C)[C@](O)(Cn2cncn2)c2ccc(F)cc2F)CC1,LA314,-,4 µg/mL
Cc1ccc(C(Cc2ccc(Cl)cc2)n2ccnc2)s1,-,-,4.7 µM
Cn1cccc1C(Cc1ccc(Cl)cc1Cl)n1ccnc1,-,-,75 µM
S=c1cc(Sc2ccccc2)ss1,ATCC 32264,-,6.25 µg/mL
C[C@@H](n1cnc2cc(Cl)ccc2c1=O)[C@](O)(Cn1cncn1)c1ccc(F)cc1F,Isolate 163.99,-,0.024 µg/mL
Cc1cc(-c2c(N=O)c(C)nn2-c2ccccc2)no1,-,-,66 µM
O=[N+]([O-])c1ccc(C=Nc2ccccc2O)cc1,C-3-1,broth dilution,8 µg/mL
CN[C@@H]1[C@H](O[C@@H]2O[C@H](CO)[C@@H](O)[C@H](S(=O)(=O)O)[C@H]2O)[C@@H](O)[C@H](O[C@H]2c3cc(C)c(C(=O)N[C@H](C)C(=O)O)c(O)c3-c3c(cc4c(c3O)C(=O)c3cc(OC)cc(O)c3C4=O)[C@@H]2O)O[C@@H]1C,D49,-,1.6 µg/mL